Anti-infective test results gathered from many reports (values: NIAID ChemDB through PubChem).

All rows: target-level tests; agent: HIV-1; target: Integrase

Two numbers with a dash give a range or band. ICn: concentration for n% inhibition. Fold resistance: result on the changed form divided by that on wild type. An empty or dashed field is not shown. Neighbouring rows are from separate reports.

SMILES | method | measure | mutations | result
Cc1cc(Cl)cc2c1S(=O)(=O)N=C(C(=O)c1ccc(Cl)cc1)S2 | strand transfer | fold resistance | INTG-C65S | 2.6
Cc1nnc(C(=O)N2CCC3(CC2)OCCCn2c3nc(C(=O)NCc3ccc(F)cc3-n3ncnc3C)c(O)c2=O)o1 | binding / radiometric | Ki | - | 0.003–0.05 µM
O=C(/C=C/c1ccc(O)c(O)c1)Oc1ccc2c(N=C=S)cccc2c1 | 3′ processing | fold resistance | C56S | 6.67
COc1ccc(C(=O)C2=NS(=O)(=O)c3cc(C)c(Cl)cc3S2)cc1 | 3′ processing | fold resistance | INTG-C65S | >3.3
O=C1c2c(O)c(=O)c(-c3nccs3)cn2CCN1Cc1cccc(Cl)c1 | ELISA | IC50 | - | <0.01 µM
Cc1cc(CNC(=O)c2nc3n(c(=O)c2O)CC2(F)CCC3(NC(=O)c3cc(C(=O)N(C)C)on3)CC2)ccc1F | radiometric | Ki | - | 0.0000022 µM
Cc1csc(-c2cn3ccn(Cc4cccc(Cl)c4)c(=O)c3c(O)c2=O)n1 | ELISA | IC50 | - | <0.01 µM
CCOC(=O)C(=O)N1CCC2(C1)OCCn1c2nc(C(=O)NCc2ccc(F)cc2-n2ncnc2C)c(O)c1=O | binding / radiometric | Ki | - | 0.003–0.05 µM
Cc1cc(CNC(=O)c2nc3n(c(=O)c2O)CC2(N(C)C)CCC3(N(C)C(=O)C(=O)N(C)C)CC2)ccc1F | radiometric | Ki | - | 0.000007 µM
CN(C)C(=O)C(=O)N1CCC2(CC1)NCCn1c2nc(C(=O)NCc2ccc(F)cc2)c(O)c1=O | binding / radiometric | Ki | - | 0.003–0.05 µM
O=C(/C=C/c1ccc(O)c(O)c1)OCCc1cccc(N=C=S)c1 | 3′ processing | fold resistance | C56S | 7.67
Cc1cc2c(cc1Cl)SC(C(=O)c1ccc(Br)cc1)=NS2(=O)=O | strand transfer | fold resistance | INTG-C65S | 2.17
CN(C)C(=O)C(=O)N(C)C12CCC(CO)(CC1)Cn1c2nc(C(=O)NCc2cccc(Cl)c2F)c(O)c1=O | radiometric | Ki | - | 0.000002 µM
O=C(C1=NS(=O)(=O)c2ccc(Cl)cc2S1)c1ccc(Cl)cc1 | 3′ processing | fold resistance | INTG-C65S | 1
Cc1cc(CNC(=O)c2nc3n(c(=O)c2O)CC2(N4CCOCC4)CCC3(NC(=O)C(=O)N(C)C)CC2)ccc1F | radiometric | Ki | - | 0.000003 µM
O=C(/C=C/c1ccc(O)c(O)c1)Oc1ccc2cccc(N=C=S)c2c1 | 3′ processing | fold resistance | C65S | 3
CC1(C)c2nc(C(=O)NCc3ccc(F)cc3)c(O)c(=O)n2CCN1CC#N | ELISA | IC50 | - | <10 µM
Cn1[nH]c2c(c(=O)c1=O)C(=O)N(Cc1cccc(Cl)c1)CC2 | ELISA | IC50 | - | 0.1–1 µM
Cc1cc(CNC(=O)c2nc3n(c(=O)c2O)CC2(C(=O)NC4CNC4)CCC3(NC(=O)C(=O)N(C)C)CC2)ccc1F | radiometric | Ki | - | 0.0000026 µM
CC1(C)NC(=O)n2c1nc(C(=O)NCc1ccc(F)cc1)c(O)c2=O | ELISA | IC50 | - | <10 µM
CC(C)c1cn(Cc2cccc(Cl)c2)c(=O)c2c(O)c(=O)c(-c3ccccc3)cn12 | ELISA | IC50 | - | 0.01–0.1 µM
CN1CCn2c(nc(C(=O)NCc3ccc(F)cc3)c(O)c2=O)C(N(C)C(=O)C(=O)N2CCOCC2)C1 | ELISA | IC50 | - | <10 µM
CN(C)C(=O)C(=O)N(C)C12CCC(CC#N)(CC1)Cn1c2nc(C(=O)NCc2ccc(F)cc2)c(O)c1=O | radiometric | Ki | - | 0.0000023 µM
COC(=O)N1CCC2(CC1)OCCCn1c2nc(C(=O)NCc2ccc(F)cc2)c(O)c1=O | binding / radiometric | Ki | - | 0.001–0.003 µM
Cc1cc2c(cc1Cl)SC(C(=O)c1cccc([N+](=O)[O-])c1)=NS2(=O)=O | 3′ processing | fold resistance | INTG-C65S | 1.67
Cc1cc(C(=O)N(C)C23CCC(F)(CC2)Cn2c3nc(C(=O)NCc3ccc(F)c(C)c3)c(O)c2=O)no1 | radiometric | Ki | - | 0.000002 µM
CC1(C)c2nc(C(=O)NCc3ccc(F)cc3)c(O)c(=O)n2CCN1CC(=O)NCc1ccncc1 | ELISA | IC50 | - | <10 µM
Cc1cc2c(cc1Cl)SC(C(=O)c1ccc(Cl)c(Cl)c1)=NS2(=O)=O | 3′ processing | fold resistance | INTG-C65S | 1.33
O=C(/C=C/c1ccc(O)c(O)c1)OCCc1ccccc1N=C=S | 3′ processing | fold resistance | C65S | 2.33
Cc1cc2c(cc1Cl)SC(C(=O)c1ccc3ccccc3c1)=NS2(=O)=O | strand transfer | fold resistance | INTG-C65S | 5
Cc1cc(CNC(=O)c2nc3n(c(=O)c2O)CC2(Cn4ccn(C)c4=S)CCC3(NC(=O)C(=O)N(C)C)CC2)ccc1F | radiometric | Ki | - | 0.0000022 µM

For reference, 4 entries again:

SMILES	method	measure	mutations	result
CN(C)C(=O)C(=O)N(C)C12CCC(CC#N)(CC1)Cn1c2nc(C(=O)NCc2ccc(F)cc2)c(O)c1=O	radiometric	Ki	-	0.0000023 µM
CN1CCn2c(nc(C(=O)NCc3ccc(F)cc3)c(O)c2=O)C(N(C)C(=O)C(=O)N2CCOCC2)C1	ELISA	IC50	-	<10 µM
Cc1cc2c(cc1Cl)SC(C(=O)c1ccc(Br)cc1)=NS2(=O)=O	strand transfer	fold resistance	INTG-C65S	2.17
Cn1[nH]c2c(c(=O)c1=O)C(=O)N(Cc1cccc(Cl)c1)CC2	ELISA	IC50	-	0.1–1 µM